HIV-1 NL4-3 point mutations in Gag: replication capacity

Protein: Gag of HIV-1 NL4-3, numbered from its first residue. Gag is numbered as the whole polyprotein.
"Other frame" gives the effect on an overlapping gene as the source lists it; other overlaps (genes, RNA elements) are not shown.

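Random point mutant libraries of HIV-1 NL4-3, one for each of seven fragments, were passaged in CEM T lymphocytes. The RC index is the frequency of a change after passage round 2 divided by its frequency in the plasmid library.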

A higher RC index is a better tolerated change; approximate classes are lethal up to 0.1, attenuated to 0.2, tolerated above.
Substitutions are written as wild-type residue, site number, new residue.
Input reads are the counts in the plasmid library.
The authors read an index above 1 as above wild type (1.9% of all changes in the genome).

With N153I (base A1247T, region CA, input reads 96) the assay gave 0.0229. C426R (base T2065C, region NC p7, input reads 345) gave 0.0614. N109T (base A1115C, region MA, input reads 40) read 0.0804. N325D (base A1762G, region CA, input reads 179) gave 0.0379. For E55D (base A954T, region MA, input reads 209) the result was 0.0679. W212R (base T1423C, region CA, input reads 276) gave 0.0389. With K415R (base A2033G, region NC p7, input reads 583) the assay gave 0.0400.

For G2S (base G793A, region MA, input reads 415) the result was 0.0419. H194Y (base C1369T, region CA, input reads 324) gave 0.115. For M317I (base G1740T, region CA, input reads 121) the result was 0.299. V135E (base T1193A, region CA, input reads 151) gave 0.0436. H358L (base A1862T, region CA, input reads 284) gave 0.00982. With A196T (base G1375A, region CA, input reads 432) the assay gave 0.127. G357C (base G1858T, region CA, input reads 291) gave 0.0383.

For K27R (base A869G, region MA, input reads 208) the result was 0.0487. K114Q (base A1129C, region MA, input reads 274) read 0.00971. With I282V (base A1633G, region CA, input reads 271) the assay gave 0.0648. For M377V (base A1918G, region p2, input reads 265) the result was 0.0356. For L101I (base T1090A, region MA, input reads 350) the result was 0.101. With M200V (base A1387G, region CA, input reads 490) the assay gave 0.0641. With K442E (base A2113G, region p1 / p6*, other frame p6* Q2R, input reads 612) the assay gave 0.0796.

For Q199L (base A1385T, region CA, input reads 337) the result was 0.0316. For K263N (base A1578T, region CA, input reads 388) the result was 0.0509. For K15R (base A833G, region MA, input reads 317) the result was 0.0427. V353M (base G1846A, region CA, input reads 112) read 0.240. With W16R (base T835A, region MA, input reads 940) the assay gave 0.0337. With W438C (base G2103T, region p1, input reads 133) the assay gave 0.0797. For Y132F (base A1184T, region MA, input reads 279) the result was 0.0551.

K290E (base A1657G, region CA, input reads 1053) read 0.0528. For V84F (base G1039T, region MA, input reads 398) the result was 0.0485. For I147V (base A1228G, region CA, input reads 266) the result was 0.0330. T320N (base C1748A, region CA, input reads 62) read 0.0365. For A360P (base G1867C, region CA, input reads 133) the result was 0.0629. E12D (base A825T, region MA, input reads 425) read 0.0409. I34T (base T890C, region MA, input reads 206) gave 0.0590.

With E211G (base A1421G, region CA, input reads 338) the assay gave 0.0636. P445S (base C2122T, region p1 / p6*, other frame p6* A5V, input reads 625) read 0.115. For A179P (base G1324C, region CA, input reads 183) the result was 0.0776. I247R (base T1529G, region CA, input reads 87) gave 0.0749. With E73V (base A1007T, region MA, input reads 209) the assay gave 0.0308. For S173T (base T1306A, region CA, input reads 291) the result was 0.159. For L50I (base C937A, region MA, input reads 186) the result was 0.0654.

W36R (base T895A, region MA, input reads 484) read 0.0419. V135A (base T1193C, region CA, input reads 226) gave 0.117. E208D (base A1413T, region CA, input reads 244) gave 0.0881. For Q308H (base A1713C, region CA, input reads 56) the result was 0.0404. For Q422H (base A2055T, region NC p7, input reads 356) the result was 0.0298. D121A (base A1151C, region MA, input reads 48) read 0.0915. With M228T (base T1472C, region CA, input reads 344) the assay gave 0.362.

For C416R (base T2035C, region NC p7, input reads 389) the result was 0.0545. E99V (base A1085T, region MA, input reads 123) gave 0.0523. For N189I (base A1355T, region CA, input reads 289) the result was 0.0430. With T332N (base C1784A, region CA, input reads 58) the assay gave 0.499. K27I (base A869T, region MA, input reads 233) read 0.0609. H144D (base C1219G, region CA, input reads 103) gave 0.0213. E105V (base A1103T, region MA, input reads 195) read 0.940.

I267F (base A1588T, region CA, input reads 360) read 0.152. E42Q (base G913C, region MA, input reads 66) read 0.0307. For Q308K (base C1711A, region CA, input reads 60) the result was 0.151. For V128D (base T1172A, region MA, input reads 232) the result was 0.0189. K26T (base A866C, region MA, input reads 35) read 0.174. For P279L (base C1625T, region CA, input reads 494) the result was 0.0666. K436R (base A2096G, region p1, input reads 732) read 0.0666.

P23A (base C856G, region MA, input reads 34) gave 0.179. I82V (base A1033G, region MA, input reads 314) read 0.0921. For F44L (base C921A, region MA, input reads 213) the result was 0.190.

A selection of 5 entries from above:

mutation	base	region	other frame	input reads	replication capacity index
K114Q	A1129C	MA	none	274	0.00971
A360P	G1867C	CA	none	133	0.0629
F44L	C921A	MA	none	213	0.190
Q308K	C1711A	CA	none	60	0.151
K26T	A866C	MA	none	35	0.174

Since each clone held several changes (about five per kb), neutral changes can read low.
Nucleotide positions follow pNL4-3.

The measurements come from Al-Mawsawi et al. 2014 (doi:10.1186/s12977-014-0124-6).